A short description of this data set: GC-MS level of azelaic acid in petiole exudates. Conditions: Col-Pex, PmaDG6, 72 hrs. Details: species or system Arabidopsis.

`O=C(O)CCCCCCCC(=O)O` [azelaic acid]: the “azelaic acid level in pathogen-induced exudates” value turned out to be 31.6 µM.
